Anti-infective test results gathered from many reports (values: NIAID ChemDB through PubChem).

All rows: growth or infection tests; organism: Mycobacterium tuberculosis

Percent inhibition refers to the dose given; in toxicity tests it is the harm to the cells.

structure	strain	cells	method	setting	read-out	dose	value
CC1COc2c(N3CCN(C)CC3)c(F)cc3c(=O)c(C(=O)O)cn1c23	H37Rv	-	-	-	MIC	-	0.78 µg/mL
S=c1[nH]c2ccccc2c(=S)n1-c1ccccc1	331/81	-	-	-	MIC	-	64 µM
CCCCCCCCCCCCSC(N)=S	H37Rv	-	resazurin	-	MIC	-	0.78 µg/mL
CC(=O)OC1C2=C(C(=O)C(=O)C(C(C)C)=C2O)[C@@]2(C)CCCC(C)(C)[C@@H]2[C@@H]1OC(C)=O	MDR	-	MTT	-	MIC100	-	12.5 µg/mL
NNC(=O)c1ccccc1Br	ATCC35801	-	-	-	MIC50	-	65.9 µg/mL
CO/N=C1\CN(c2nc3c(cc2F)c(=O)c(C(=O)O)cn3C2CC2)CC1CN	37 strains (drug-resistant)	-	-	-	MIC50	-	>4 µg/mL
CC(C)[C@H]1CO[C@]23CC[C@@H](NCc4ccc(C(F)(F)F)cc4)C[C@H]2CCC(=O)N13	H37Rv	-	resazurin	-	MIC98	-	1–10 µM
CCOC(=O)Cn1c2ccccc2c2cc3c(C)nccc3c(C)c21	H37Rv	-	resazurin	-	inhibition	6.25 µg/mL	79%
CSc1cc(C(N)=S)cc(Br)n1	H37Rv	-	-	-	MIC	-	500 µM
CCCSc1nc(C(N)=O)cnc1CCC	H37Rv	-	-	-	inhibition	12.5 µg/mL	<90%
CCn1cc(C(=O)O)c(=O)c2cc(F)c(N3CCN(C)CC3)cc21	-	-	-	pH 6.8	inhibition	10 µg/mL	100%
CC(C)C1=C(O)C2=C(C(=O)C1=O)[C@@]1(C)CCCC(C)(C)C1[C@H](O)[C@H]2O	H37Rv	-	MTT	-	MIC100	-	>25 µg/mL
CC(C)Cc1ncc(C(N)=S)nc1Sc1ccccc1	H37Rv	-	-	-	inhibition	12.5 µg/mL	78%
S=c1[nH]c2ccccc2c(=S)n1-c1ccc(Cl)c(Cl)c1	331/81	-	-	-	MIC	-	32 µM
CO[C@H]1/C=C/O[C@@]2(C)Oc3c(C)c(O)c4c(O)c(c(/C=N/N5CCN(C)CC5)c(O)c4c3C2=O)NC(=O)/C(C)=C\C=C\[C@H](C)[C@H](O)[C@@H](C)[C@@H](O)[C@@H](C)[C@H](OC(C)=O)[C@@H]1C	H37Rv (capreomycin-resistant)	-	-	-	MIC	-	2.5 µg/mL
NC(=O)NNC(=O)CCn1[nH]c(=O)c(Cl)c(Cl)c1=O	H37Rv	-	BACTEC	-	MIC	-	≥12.5 µg/mL
CN(C)C(=O)CC(CSc1ccccc1)Nc1c(C(=O)N/N=C/c2ccc(Br)s2)cnc2cccc(C(F)(F)F)c12	H37Rv	-	resazurin	-	MIC	-	10 µg/mL
CCCCCCSc1cc(C(N)=S)cc(SCC)n1	H37Rv	-	-	-	MIC	-	30 µM
COc1ccc2nc(Cl)c(/C=C3/C=C(c4ccc(C)cc4)OC3=O)cc2c1	H37Rv	-	resazurin	-	EC50	-	>100 µg/mL
CSCCC/C=N/NC(=O)c1cnc2cc(F)ccc2c1NC(CSc1ccccc1)CC(=O)N(C)C	H37Rv	-	resazurin	-	MIC	-	>100 µg/mL
CCc1nc2c([nH]1)C(=O)c1ccccc1C2=O	H37Rv	-	BACTEC	-	inhibition	12.5 µg/mL	40%
CC(C)[C@H]1CO[C@]23CCN(Cc4ccc(C(F)(F)F)cc4)C[C@H]2CC(=O)N13	H37Rv	-	resazurin	-	MIC98	-	1–10 µM
CO[C@H]1/C=C/O[C@@]2(C)Oc3c(C)c(O)c4c(c3C2=O)C(=O)C=C(NC(=O)/C(C)=C\C=C\[C@H](C)[C@H](O)[C@@H](C)[C@@H](O)[C@@H](C)[C@H](OC(C)=O)[C@@H]1C)C4=O	H37RV ATCC9360	-	-	-	MIC	-	0.05 µg/mL
FC(F)(F)c1nn2cc(-c3ccc(Cl)cc3)nc2s1	H37Rv	-	-	-	MIC	-	40 µg/mL
CCCC(=O)O[C@@H]1C(OC(C)=O)C2=C(C(=O)C(=O)C(C(C)C)=C2O)[C@@]2(C)CCCC(C)(C)[C@H]12	H37Rv	-	MTT	-	MIC100	-	25 µg/mL
CCCCCCCCSc1cc(C(N)=S)cc(SCCCCCC)n1	H37Rv	-	-	-	MIC	-	125 µM
Nc1nc(N)c2nc3c(nc2n1)CCCCCC3	H37Rv	-	BACTEC	-	inhibition	12.5 µg/mL	8%
O=C(NNC(=O)c1cc(Cl)ccc1[N+](=O)[O-])c1ccncc1	ATTC 27294	-	resazurin	-	MIC	-	0.5 µg/mL
CCCCSc1nc(C(N)=O)cnc1CCC	H37Rv	-	-	-	inhibition	12.5 µg/mL	<90%
O=c1[nH]c(=O)n([C@@H]2O[C@H](CO)[C@@H](O)[C@H]2O)cc1[N+](=O)[O-]	H37Rv	-	resazurin	-	inhibition	6.25 µg/mL	-25%
NNC(=O)c1cccc(Br)c1	ATCC35801	-	-	-	MIC50	-	29.5 µg/mL
CCCc1ncc(C(N)=S)nc1Sc1ccccc1	H37Rv	-	-	-	MIC	-	>12.5 µg/mL
C=C1C(=O)O[C@H]2[C@H]1[C@H](OC(=O)C=C(C)C)CC1=C[C@H](C[C@]3(C)O[C@H]23)OC1=O	H37Rv	-	BACTEC	-	inhibition	12.5 µg/mL	10%
O=C(NNC(=O)c1ccc(Cl)c([N+](=O)[O-])c1)c1ccncc1	ATTC 27294	-	resazurin	-	MIC	-	0.5 µg/mL
COc1c2c(c(OC)c3c(=O)c4ccccc4[nH]c13)OCO2	H37Rv	-	BACTEC	-	MIC bound	-	>12.5 µg/mL
COc1ccc2nc(Cl)c(/C=C3/C=C(c4ccccc4)OC3=O)cc2c1	H37Rv	-	resazurin	-	EC50	-	>100 µg/mL
COc1ccc2c(c1)n([O-])c1ccccc1[n+]2=O	H37Rv	VERO	-	-	MIC	-	3.13 µg/mL
O=C(NN1C(=O)[C@H](Cl)[C@H]1c1ccc(O)cc1)c1cc(-c2ccc(Cl)cc2)n[nH]1	H37Rv	-	broth dilution	-	MIC	-	1.1 µg/mL
O=C(Nc1ccc(F)cc1)c1cccnc1Cl	H37Rv	-	-	-	MIC	-	>20 µg/mL
COc1ccc2cc1Oc1cc(ccc1OC)CCC(NCCc1ccccc1)CCCC2	H37Rv	-	broth dilution	-	MIC	-	25 µg/mL
CC(C)[C@H]1CCO[C@]23CCN(Cc4ccc(C(F)(F)F)cc4)C[C@H]2CC(=O)N13	H37Rv	-	resazurin	-	MIC98	-	>10 µM
COc1ccc2cc1Oc1cc(ccc1OCC=C(C)C)CCC(=O)CCCC2	H37Rv	-	broth dilution	-	MIC	-	>200 µg/mL
CSc1nc(C(N)=S)cnc1CC(C)C	H37Rv	-	-	-	MIC	-	>12.5 µg/mL
COc1ccc(CCCCC(=O)/C=C/c2ccc(Br)c(OC)c2)cc1O	H37Rv	-	broth dilution	-	MIC	-	>200 µg/mL
O=C(NN1C(=O)[C@H](Cl)[C@H]1c1ccccc1[N+](=O)[O-])c1cc(-c2ccc(Cl)cc2)n[nH]1	H37Rv	-	broth dilution	-	MIC	-	>5 µg/mL
O=C(N/N=C/c1cccc([N+](=O)[O-])c1)c1ccncc1	ATTC 27294	-	resazurin	-	MIC	-	0.5 µg/mL
CCCCc1ncc(C(N)=S)nc1Sc1ccccc1	H37Rv	-	-	-	MIC	-	<6.25 µg/mL
CC(=O)OC1=C(C(C)C)C(=O)C2=C(C1=O)[C@@]1(C)CCCC(C)(C)[C@@H]1[C@H](OC(C)=O)[C@H]2OC(C)=O	H37Rv	-	MTT	-	MIC100	-	25 µg/mL
COCOc1ccc(CCC(=O)CCCCc2ccc(OC)c(O)c2)cc1Br	H37Rv	-	broth dilution	-	MIC	-	>200 µg/mL
O=C(NNC(=O)c1cc([N+](=O)[O-])cc([N+](=O)[O-])c1)c1ccncc1	ATTC 27294	-	resazurin	-	MIC	-	2 µg/mL
CCc1nnc2sc3c(Cl)c4nn5c(CC)nnc5sc4c(Cl)c3nn12	H37Rv	-	BACTEC	-	MIC bound	-	>12.5 µg/mL
CC(C)C1=C(O)C2=C(C(=O)C1=O)[C@@]1(C)CCCC(C)(C)C1C[C@H]2O	MDR	-	MTT	-	MIC100	-	12.5 µg/mL
COc1cc(=O)n(C)c2ccccc12	H37Rv	-	broth dilution / resazurin	-	MIC	-	>2000 µg/mL
CCCCCCSc1cc(C(N)=O)cc(SCC)n1	H37Rv	-	-	-	MIC	-	60 µM
S=c1oc2c(Cl)cc(Cl)cc2c(=S)n1-c1ccccc1	331/81	-	-	-	MIC	-	8 µM
Cc1c(F)c(N2CCNC(C)C2)cc2c1c(=O)c(C(=O)O)cn2C1CC1	37 strains (drug-resistant)	-	-	-	MIC90	-	4 µg/mL
Cc1nc(-n2nc(-c3ccccc3)cc2-c2ccccc2)sc1C(=O)CC(=O)C(=O)Nc1ccc(O)cc1	H37Rv	-	resazurin	-	inhibition	6.25 µg/mL	30%
CCCCCCSc1cc(C(N)=S)cc(SCCCC)n1	H37Rv	-	-	-	MIC	-	30 µM
Cc1ccc(NC(=O)c2cccnc2Cl)nc1	H37Rv	-	-	-	MIC	-	>20 µg/mL
COc1ccc(-c2cn3nc(S(N)(=O)=O)sc3n2)cc1	H37Rv	-	-	-	MIC	-	>6.25 µg/mL
CSc1ccccc1/C=N/NC(=O)c1cnc2cc(F)ccc2c1NC(CSc1ccccc1)CC(=O)N(C)C	H37Rv	-	resazurin	-	MIC	-	>100 µg/mL
CC1CC(C)(CO)Oc2oc3ccccc3c(=O)c21	H37Rv	-	BACTEC	-	inhibition	12.5 µg/mL	-32%
O=C1CCCCc2ccc(c(O)c2)Oc2cc(ccc2O)CC1	H37Rv	-	broth dilution	-	MIC	-	200 µg/mL
Cc1ccc(C2=C/C(=C/c3cc4cc(Cl)ccc4nc3Cl)C(=O)O2)cc1	H37Rv	-	resazurin	-	EC50	-	>100 µg/mL
CCCCCCCCC[N+]12CC[N+](CCCCCCCCC)(CC1)CC2.[Br-].[Br-]	H37Rv	-	BACTEC	-	inhibition	12.5 µg/mL	71%
S=c1oc2c(Cl)cc(Cl)cc2c(=S)n1-c1ccc(Br)cc1	331/81	-	-	-	MIC	-	8 µM
Cc1ccc(-c2nc3sc(S(=O)(=O)/N=C/N(C)C)nn3c2/C=N/N=C(N)N)cc1	H37Rv	-	-	-	inhibition	6.25 µg/mL	43%
O=C(N/N=C/c1ccc(Cl)cc1[N+](=O)[O-])c1ccncc1	ATTC 27294	-	resazurin	-	MIC	-	1.2 µg/mL
O=C(NN1C(=O)CSC1c1cccc([N+](=O)[O-])c1)c1cc(-c2ccc(Cl)cc2)n[nH]1	-	-	broth dilution	-	MIC	-	4 µg/mL
CC(=O)O[C@H]1C2=C(C(=O)C(C(=O)Oc3ccc(Cl)cc3)=C(C(C)C)C2=O)[C@@]2(C)CCCC(C)(C)[C@@H]2[C@@H]1O	MDR	-	MTT	-	MIC100	-	0.78 µg/mL
CC(C)[C@H]1CS[C@]23CCN(Cc4ccccc4)C[C@H]2CCC(=O)N13	H37Rv	-	resazurin	-	MIC98	-	1–10 µM
O=C1OC(c2ccccc2)=N/C1=C\c1ccc(/C=C2\N=C(c3ccccc3)OC2=O)cc1	H37Rv	-	BACTEC	-	inhibition	12.5 µg/mL	22%
Cc1ccc(-n2c(=S)oc3c(Cl)cc(Cl)cc3c2=S)cc1	331/81	-	-	-	MIC	-	16 µM
O=c1ssc2ncccc12	H37Rv	-	BACTEC	-	MIC	-	≥12.5 µg/mL
CCCCCCCSc1cc(C(N)=O)cc(SCCCCCC)n1	H37Rv	-	-	-	MIC	-	1000 µM
CCCSc1nc(C(N)=S)cnc1CC(C)C	H37Rv	-	-	-	inhibition	12.5 µg/mL	64%
Cc1cc(=O)oc2cc(OCc3nnc(NC(=O)c4cccc(Br)c4)o3)ccc12	H37Rv	-	resazurin	-	EC50	-	>100 µg/mL
CCCCCCCC/C=N/NC(=O)c1cnc2cc(F)ccc2c1NC(CSc1ccccc1)CC(=O)N(C)C	H37Rv	-	resazurin	-	MIC	-	1.25 µg/mL
COc1cc(-c2cn3nc(C(F)(F)F)sc3n2)cc(OC)c1OC	H37Rv	-	-	-	MIC	-	40 µg/mL
CC(=O)C1=C(C)N2C(=NC3=C(CCc4ccccc43)C2c2cccc(Br)c2)S1	H37Rv	-	BACTEC	-	inhibition	12.5 µg/mL	85%
O=C(Nc1ccc(I)cc1)c1cccnc1Cl	H37Rv	-	-	-	MIC	-	>20 µg/mL
CC(C(=O)Nc1ccc(N(CCCl)CCCl)cc1)n1ccnc1[N+](=O)[O-]	H37Rv	-	resazurin	-	inhibition	6.25 µg/mL	-3%
CN(C)C(=O)CC(CSc1ccccc1)Nc1c(C(=O)N/N=C/c2ccc(F)cc2)cnc2cc(F)ccc12	H37Rv	-	resazurin	-	MIC	-	1.25 µg/mL
CCOc1c(N=Nc2ccc(Cl)cc2)c(-c2ccccc2)nn1C(=S)S	H37Rv	-	BACTEC	-	MIC	-	≥12.5 µg/mL
COc1c2ccoc2cc2oc(=O)ccc12	H37Rv	-	broth dilution / resazurin	-	MIC	-	1160 µM
CCCNCC(=O)O[C@]1(CC)C(=O)OCc2c1cc1n(c2=O)Cc2cc3ccccc3nc2-1	H37Rv	-	BACTEC	-	inhibition	12.5 µg/mL	5%
CCCCc1ncc(C(N)=S)nc1SC	H37Rv	-	-	-	inhibition	12.5 µg/mL	62%
COc1ccc(C2SC(N)=Nc3c2c(C)nn3C(=O)c2ccc(Cl)cc2)cc1	H37Rv	-	BACTEC	-	inhibition	12.5 µg/mL	9%
CCCc1ncc(C(N)=O)nc1SCC	H37Rv	-	-	-	inhibition	12.5 µg/mL	<90%

MIC50, MIC90 and the like: level of inhibition, or share of isolates inhibited. MIC bound: limit read from a one-dose screen. ECn is the concentration giving n% inhibition of infection, replication or growth. Blank or dashed fields: not listed here. Neighbouring rows are from separate reports. a–b is a range or a potency band.